Results reported in patent US20260168983, “YaxAB NANOPORE, NANOPORE SYSTEM COMPRISING SAME AND APPLICATIONS THEREOF” (published 2026).

Molecular target: YaxB_(12-343), modified second monomer, Yersinia enterocolitica
Experiment: negative-stain EM of the YaxAB_dN-C8 oligomer

In the case of YaxA_(45-410), modified first monomer, the result is reported as “binds”.
